Compound potency records, mixed from different reports. Data source: NIAID ChemDB in PubChem.

All rows: whole-cell or culture tests; organism: Mycobacterium tuberculosis

a–b is a range or a potency band.

compound,strain or isolate,dose,read by,read-out,cells,value
Nc1nc(-c2ccccc2N=NN2CCN(N=Nc3ccccc3-c3nc(N)c4ccccc4n3)CC2)nc2ccccc12,H37Rv,-,BACTEC,MIC bound,-,≤12.5 µg/mL
CN1N=C(c2ccncc2)OC1c1ccc(C(F)(F)F)cc1,6 PI,-,-,MIC,-,>20 µg/mL
CO[C@H]1/C=C/O[C@@]2(C)Oc3c(C)c(O)c4c(O)c(c(/C=N/N5CCN(C)CC5)c(O)c4c3C2=O)NC(=O)/C(C)=C\C=C\[C@H](C)[C@H](O)[C@@H](C)[C@@H](O)[C@@H](C)[C@H](OC(C)=O)[C@@H]1C,Clinical isolate 30034,-,broth dilution,MIC,-,≤1 µM
C[C@@H]1C[C@H](O)C(=O)[C@]2(C)[C@H]3[C@H](O)C(=O)[C@H](C)[C@@H]4CC(=O)O[C@H](C[C@@H]12)[C@]34C,H37Rv,-,-,EC50,-,>12.5 µg/mL
CCN(CC)C(=O)C1=C(C)NC(C)=C(C(=O)OCCCc2ccccc2)C1c1ncc([N+](=O)[O-])n1C,H37Rv (ATCC 27294),-,-,MIC,-,0.001 µM
C=CCNc1nnc(CCON=C(c2ccccc2)c2ccccc2)o1,-,12.5 µg/mL,-,inhibition,-,7–56%
O=C1c2ccccc2S(=O)(=O)N1CSC(=S)N1CCOCC1,H37Rv,6.25 µg/mL,-,inhibition,-,100%
CC(=O)OCc1cc(=O)n(C)c2c3c4c(cc12)c(C)cc(=O)n4CO3,PZA-R,-,-,MIC,-,3.2 µg/mL
CC(C)=CCC/C(C)=C/CC/C(C)=C/CC/C(C)=C/CO,H37Rv,-,resazurin,MIC,-,1.56 µg/mL
O=C1C2SSC(C(=O)N2Cc2ccccc2)N1Cc1ccccc1,-,-,turbidity,EC50,-,2.3 µM
COC(=O)[C@]12OC[C@@]34[C@@H](CC5=C(C)C(=O)C(O)=C[C@]5(C)[C@H]3[C@@H](O)[C@@H]1O)OC(=O)[C@H](OC(=O)c1ccccc1)[C@@H]24,H37Rv,12.5 µg/mL,-,inhibition,-,8%
O=[N+]([O-])c1ccc2c(c1)NC(c1ccccn1)S2,H37Rv,-,-,MIC,-,1.25 µg/mL
O=C1CSc2nc3c(Cl)cc(Cl)cc3c(=O)n21,H37Rv,-,resazurin,MIC bound,-,>6.25 µg/mL
Cc1cccc(C(N)=Nc2nc(-c3ccccn3)cc3ccccc23)c1,-,-,-,MIC,-,0.5 µg/mL
CCN(CC)CCSC(=S)N1c2ccccc2Sc2ccccc21,H37Rv,-,BACTEC,MIC,-,16 µg/mL
NNC(=O)c1ccncc1,Clinical isolate 12850,-,broth dilution,MIC,-,≤0.2 µM
COC(=O)c1ccc2oc3ccccc3c(=O)c2c1,H37Rv,-,-,MIC,-,>16 µg/mL
CC1(C)CC[C@]2(C(=O)O)CC[C@]3(C)C(CC[C@@H]4[C@@]5(C)C[C@H](O)CC(C)(C)[C@@H]5CC[C@]43C)[C@@H]2C1,INH-R (ATCC 35822),-,resazurin,MIC,-,25 µg/mL
C/C(=C\CO)CC/C=C(\C)CCC1CCCCC1,H37Rv,6.25 µg/mL,resazurin,inhibition,-,49%
O=C(N=Nc1c(O)[nH]c2ccccc12)C(=O)N=Nc1c(O)[nH]c2ccccc12,H37Rv,-,BACTEC,MIC bound,-,>12.5 µg/mL
COc1nc(C)nc(NC(=O)NS(=O)(=O)c2ccccc2OCCCl)n1,P4145,-,-,MIC,-,16 µM
CO[C@H]1/C=C/O[C@@]2(C)Oc3c(C)c(O)c4c(O)c(c(/C=N/N5CCN(C/C=C/c6ccccc6)CC5)c(O)c4c3C2=O)NC(=O)/C(C)=C\C=C\[C@H](C)[C@H](O)[C@@H](C)[C@@H](O)[C@@H](C)[C@H](OC(C)=O)[C@@H]1C,H37Rv,-,-,MIC,-,0.1 µg/mL
N=C(N)n1ncc(Cl)c(Cl)c1=O,H37Rv,-,BACTEC,MIC bound,-,>6.25 µg/mL
COc1ccc(C2OC(c3ccncc3)=NN2C)cc1OC,6 PI,-,-,MIC,-,>20 µg/mL
C=C[C@@](C)(O)CC/C=C(/C)CCC=C(C)C,H37Rv,6.25 µg/mL,resazurin,inhibition,-,11%
CC(C)N(O)C(=O)C(=O)O,T13704,-,-,MIC,-,62 µM
C/C(=N\NC(=O)c1ccncc1)C(F)(F)F,H37Rv,-,-,MIC,VERO,>0.12 µg/mL
CC12CCC(C3=C(C1=O)[Se](=O)C1=C(O3)C3CCC(C)(C1=O)C3(C)C)C2(C)C,H37Rv,-,-,MIC,-,16.99 µg/mL
O=C(O)/C=C/c1ccc([N+](=O)[O-])o1,H37Rv,-,resazurin,MIC bound,-,>6.25 µg/mL
C/C(=N\OCCc1nnc(-c2ccc(Cl)cc2)o1)c1ccccc1,-,12.5 µg/mL,-,inhibition,-,7–56%
CC(=O)O[C@@H]1[C@H](C)[C@@H]2CC(=O)O[C@@H]3C[C@H]4[C@H](C)C[C@H](O)C(=O)[C@]4(C)[C@@H]([C@@H]1O)[C@@]32C,H37Rv,-,-,EC50,-,>12.5 µg/mL
c1ccc(C(=NOCCc2nnc(-c3ccccc3)o2)c2ccccc2)cc1,-,12.5 µg/mL,-,inhibition,-,7–56%
CC(=O)Nc1ccc(Nc2cc(S(=O)(=O)O)c(N)c3c2C(=O)c2ccccc2C3=O)cc1,H37Rv,12.5 µg/mL,BACTEC,inhibition,-,-15%
c1ccc(C(=NOCc2nnc(N3CCOCC3)o2)c2ccccc2)cc1,-,12.5 µg/mL,-,inhibition,-,7–56%
COC1=C[C@@H](C)[C@@H]2C[C@H]3OC(=O)C[C@H]4[C@](C)(O)[C@H](OC)[C@@H](OC(C)=O)[C@H]([C@@]2(C)C1=O)[C@@]34C,H37Rv,12.5 µg/mL,-,inhibition,-,5%
CCC1CC2CC(c3cc4c(cc3OC)N(C)C3C(O)(C(=O)OC)C(OC(C)=O)C5(CC)C=CCN6CCC43C65)c3[nH]c4ccccc4c3CCN(C1)C2,H37Rv,-,BACTEC,MIC bound,-,>12.5 µg/mL
CCN(CC)C(=O)C1=C(C)NC(C)=C(C(=O)OCCc2ccccc2)C1c1ncc([N+](=O)[O-])n1C,H37Rv (ATCC 27294),-,-,MIC,-,0.001 µM
CC(=N\N=C(N)N)/C(N=Nc1ccc(S(N)(=O)=O)cc1)=N/N=C(N)N,H37Rv,-,BACTEC,MIC,-,≥12.5 µg/mL
C/C(=N\OCc1nnc(N)o1)c1ccccc1,-,12.5 µg/mL,-,inhibition,-,7–56%
COC1=C[C@@H](C)[C@@H]2C[C@H]3OC(O)C[C@H]4[C@](C)(O)[C@H](OC)[C@@H](OC(C)=O)[C@H]([C@@]2(C)C1=O)[C@@]34C,H37Rv,-,-,EC50,-,>12.5 µg/mL
CC(C)=CCC/C(C)=C/CO,H37Rv,-,resazurin,MIC,-,64 µg/mL
Nc1nnc(CCON=C(c2ccccc2)c2ccccc2)o1,-,12.5 µg/mL,-,inhibition,-,7–56%
COC(=O)N[C@@H]1[C@H](C)O[C@@H](OC2C/C=C(\C)[C@H]3C=C[C@H]4[C@H](OC5C[C@@H](O[C@@H]6C[C@@H](O)[C@@H](O)[C@H](C)O6)[C@@H](O)[C@H](C)O5)[C@H](C)C[C@@H](C)[C@@H]4[C@@]3(C)/C(O)=C3/C(=O)OC4(C[C@H](C)C(C)=C[C@H]4/C=C\2C)C3=O)C[C@@]1(C)[N+](=O)[O-],H37Ra,-,MTT,MIC90,-,1.4 µM
O/N=C/c1cnccn1,H37Rv,-,BACTEC,MIC bound,-,>12.5 µg/mL
Cc1c([N+](=O)[O-])cc2c(=O)c3cc([N+](=O)[O-])ccc3oc2c1C,H37Rv,-,-,MIC,-,>8 µg/mL
C=C(NC(=O)c1csc(-c2nc3c(cc2O)-c2nc(cs2)C(=O)N[C@@H]([C@@H](C)O)C(=O)N/C(=C(\C)OC)c2nc(cs2)C(=O)N[C@@H]2c4nc(cs4)C(=O)N[C@@H](COC(=O)c4c5c6c(cccc6n4O)COC(=O)[C@@H](O[C@H]4C[C@](C)(O)[C@H](N(C)C)[C@H](C)O4)[C@H]2OC5)c2nc-3cs2)n1)C(N)=O,Clinical Isolate 913,-,broth dilution,MIC,-,≤2.5 µM
CCOc1nc(C(=O)O)cc2ccsc12,H37Rv,-,BACTEC,MIC bound,-,>12.5 µg/mL
C=C1CCCC(C)(C)[C@H]1CC/C(C)=C/CC/C(C)=C/CO,H37Rv,6.25 µg/mL,resazurin,inhibition,-,61%
Cc1ccc(NC(=S)SCc2ccc(Cl)c(Cl)c2)cc1C,H37Rv,-,BACTEC,MIC,-,64 µg/mL
c1ccc(OCc2nnc(CCON=C(c3ccccc3)c3ccccc3)o2)cc1,-,12.5 µg/mL,-,inhibition,-,7–56%
CC1CCN(C(=S)SCN2C(=O)c3ccccc3S2(=O)=O)CC1,H37Rv,-,-,MIC,-,0.78 µg/mL
NC(=O)c1ccc2c(=O)c3ccccc3oc2c1,H37Rv,-,-,MIC,-,>32 µg/mL
NC(=O)c1cnccn1,Isolate K10428,-,-,MIC,-,>500 µg/mL
COC(=O)[C@]12OC[C@]34[C@H]([C@@H](O)[C@@H]1O)[C@@]1(C)C(=O)C(O)=C[C@@H](C)[C@@H]1C[C@H]3OC(=O)[C@H](OC(=O)/C=C(\C)C(C)C)[C@@H]24,H37Rv,12.5 µg/mL,-,inhibition,-,3%
C/C(=N\OCCc1nnc(-c2ccccc2)o1)c1ccccc1,-,12.5 µg/mL,-,inhibition,-,7–56%
COC(=O)[C@]12OC[C@]34[C@H]([C@@H](O)[C@H]1O)[C@@]1(C)CC(=O)C(O)=C(C)[C@@H]1C[C@H]3OC(=O)[C@H](OC(=O)/C=C(\C)C(C)C)[C@@H]24,H37Rv,-,-,EC50,-,>12.5 µg/mL
O=C1CC(SC(=S)N2CCCCC2)C(=O)N1c1ccccc1,PAS-R,-,-,MIC,-,3.2 µg/mL
CC(C)OC(=S)SCN1C(=O)c2ccccc2S1(=O)=O,H37Rv,-,-,MIC,-,3.13 µg/mL
CCN1c2ccccc2SC1c1ccncc1,H37Rv,-,-,MIC,-,25 µg/mL
CO[C@H]1/C=C/O[C@@]2(C)Oc3c(C)c(O)c4c(O)c(c(/C=N/N5CCN(C)CC5)c(O)c4c3C2=O)NC(=O)/C(C)=C\C=C\[C@H](C)[C@H](O)[C@@H](C)[C@@H](O)[C@@H](C)[C@H](OC(C)=O)[C@@H]1C,T13704,-,-,MIC,-,6.2 µM
CN1N=C(c2ccncc2)OC1c1ccc(Cl)cc1,H37Rv,-,-,MIC,-,>20 µg/mL
Clc1ccc2c(c1)NC(c1cccnc1)S2,H37Rv,-,-,MIC,-,1.6 µg/mL
Cc1ccc(N=C(c2ccccc2)N(O)c2ccc(Cl)cc2)cc1Cl,H37Rv,-,BACTEC,MIC bound,-,>12.5 µg/mL
CO/C(C)=C1/NC(=O)[C@H]([C@@H](C)O)NC(=O)c2csc(n2)-c2cc(O)c(-c3nc(C(=O)NCCCN4CCOCC4)cs3)nc2-c2csc(n2)[C@@H]2COC(=O)c3c4c5c(cccc5n3O)COC(=O)[C@@H](O[C@H]3C[C@](C)(O)[C@H](N(C)C)[C@H](C)O3)[C@@H](OC4)[C@H](NC(=O)c3csc1n3)c1nc(cs1)C(=O)N2,Clinical isolate 10367,-,broth dilution,MIC,-,≤2.5 µM
NNC(=O)c1ccncc1,17 strains,-,-,MIC,-,0.025–0.05 µg/mL
COC1=C[C@@H](C)[C@@H]2C[C@H]3OC(=O)C[C@]4(O)[C@@]3(C)[C@H]([C@H](O)[C@@H](OC)[C@@]4(C)O)[C@@]2(C)C1=O,H37Rv,-,-,EC50,-,>12.5 µg/mL
CN1N=C(c2ccncc2)OC1c1ccccc1F,H37Rv,-,-,MIC,-,10 µg/mL
CC1(C)CC(=NO)C2[Se]ON=C2C1,H37Rv,-,-,MIC,-,4.23 µg/mL
C=C1CCC2C(C)(C)CCC[C@@]2(C)[C@@H]1CC/C(C)=C/COC(C)=O,H37Rv,6.25 µg/mL,resazurin,inhibition,-,29%
O=C1c2ccccc2S(=O)(=O)N1CSC(=S)N1CCCC1,H37Rv,6.25 µg/mL,-,inhibition,-,99%
CC(=O)OC1CC2C(C)(C)CCCC2(C)C2C(=O)C(O)=C(C(C)C)C(=O)C12,H37Rv,-,BACTEC,MIC,VERO,6.25 µg/mL
c1ccc(CNc2nnc(CON=C(c3ccccc3)c3ccccc3)o2)cc1,-,12.5 µg/mL,-,inhibition,-,7–56%
CO[C@@]12[C@H](COC(N)=O)C3=C(C(=O)C(C)=C(N)C3=O)N1C[C@H]1[C@@H]2N1C,TAC-R,-,-,MIC,-,0.4 µg/mL
Cc1ccc2c(=O)c3ccccc3oc2c1,H37Rv,-,-,MIC,-,>32 µg/mL
CCn1c2ccc(C(=O)CCCN(C)C)cc2c2cc(C(=O)CCCN(C)C)ccc21.O=C(O)/C=C\C(=O)O.O=C(O)/C=C\C(=O)O,H37Rv,-,BACTEC,MIC bound,-,>12.5 µg/mL
CCN(CC)C(=O)C1=C(C)NC(C)=C(C(=O)OCCCCc2ccccc2)C1c1ncc([N+](=O)[O-])n1C,H37Rv (ATCC 27294),-,-,MIC,-,0.002 µM
CC(=O)Oc1c2c(c(OC(C)=O)c3c1n(C(C)=O)c1ccccc1n3C(C)=O)n(C(C)=O)c1ccccc1n2C(C)=O,H37Rv,12.5 µg/mL,BACTEC,inhibition,-,44%
COc1ccc(OC)c(C2OC(c3ccncc3)=NN2C)c1,H37Rv,-,-,MIC,-,>20 µg/mL

An empty or dashed field is not shown. Lines come from different laboratories, so protocols vary. MIC bound comes from a single tested concentration. MIC50, MIC90 and the like: level of inhibition, or share of isolates inhibited. Inhibition is in % at the dose shown (toxicity tests: loss of growth or viability). ECn is the concentration giving n% inhibition of infection, replication or growth.